Measured values from several laboratories, pooled; numbers as filed in NIAID ChemDB.

Common to all: target-level tests; organism: HIV-1; target: Integrase; read-out: IC50

ICn is the concentration giving n% inhibition. Conditions beyond the fields shown may differ between rows. An empty or dashed field is not shown.

O=c1cc(-c2ccccc2)oc2cc(O)c(O)c(O)c12 ; method: strand transfer / absorbance ; result: 1.36 µM
Cc1cc(O)c2c(c1)C(=O)C1(C)C(=C2O)C(=O)[C@H]2[C@H](O)[C@H]3[C@@H](O)[C@@H]1C(=O)C1=C(O)c4c(O)cc(C)cc4C(=O)C132 ; method: absorbance ; result: 19 µM
CCN(CC)CCCC(C)Nc1c2ccc(Cl)cc2nc2ccc(OC)cc12 ; method: 3′ processing / substrate cleavage ; result: >100 µM
CC(C)=C/C=C\[C@H](C)[C@H]1CC[C@]2(C)C[C@H]3[C@@H]4C(=C[C@@H]12)COC4(O)C[C@@]3(C)O ; method: absorbance ; result: 30 µM
COc1cc(NS(C)(=O)=O)ccc1Nc1c2ccccc2nc2ccccc12 ; method: 3′ processing / substrate cleavage ; result: >100 µM
COC(O)/C=C/c1ccc2c(c1)c(C(=O)/C=C1\OC(C)(C)OC1=O)cn2Cc1ccc(F)cc1 ; method: strand transfer / fluorescence ; result: 11.56 µM
COc1cc(NC(C)CCCN)c2ncccc2c1 ; method: 3′ processing / substrate cleavage ; result: 15.3 µM
CCOC(=O)C(=O)C(=O)c1cccn1Cc1ccc(F)cc1 ; method: binding ; result: 3.49 µM
C[C@@H]1CC[C@@]23COC(=O)C2=CCCC3[C@@]1(C)CCC1=CC(=O)OC1 ; method: strand transfer / absorbance ; result: 35.72 µM
Cc1c2ccncc2c(C)c2c1[nH]c1ccccc12 ; method: 3′ processing / substrate cleavage ; result: 30.1 µM
C[C@@H]1CC[C@@]2(C)C(C(=O)O)=CC(=O)CC2[C@@]1(C)CCC1=CC(=O)OC1O ; method: strand transfer / absorbance ; result: >50 µM
CC(C)=C/C=C\[C@H](C)[C@H]1CC[C@]2(C)C[C@H]3[C@H](C(=O)C[C@@]3(C)O)C(C=O)=C[C@@H]12 ; method: absorbance ; result: 23 µM
O=C(O)C(C(=O)O)c1c[nH]c2ccc([N+](=O)[O-])cc12 ; method: strand transfer / fluorescence ; result: 24.5 µM
CCN(CC)CCCC(C)Nc1ccnc2cc(Cl)ccc12 ; method: 3′ processing / substrate cleavage ; result: 13.1 µM
CC1(C)OC(=O)/C(=C/C(=O)c2c[nH]c3ccc(Br)cc23)O1 ; method: strand transfer / fluorescence ; changes: G140S ; result: 10.6 µM
CCOC(=O)CC(=O)c1cccn1Cc1ccc(F)cc1 ; method: binding ; result: >100 µM
CCN(CC)Cc1cc(Nc2ccnc3cc(Cl)ccc23)ccc1O ; method: 3′ processing / substrate cleavage ; result: >100 µM
O=C(O)/C=C/c1ccc(O)c(O)c1 ; method: absorbance ; result: 2.8 µM
CCOC(=O)C(C(=O)OCC)c1cn(S(=O)(=O)c2ccc(C)cc2)c2ccc(NC(=O)c3cccc(C)c3O)cc12 ; method: strand transfer / fluorescence ; changes: Y143R ; result: 24.9 µM
NCCCNCCCCNCCCN ; method: 3′ processing / substrate cleavage ; result: >100 µM
O=C(O)C(=O)/C=C(\O)c1cn(Cc2cc(F)ccc2F)c2ccc(F)cc12 ; method: strand transfer / fluorescence ; changes: Y143R ; result: 5.7 µM
COc1cc(-c2ccc(O)cc2)c(OC)c(O)c1-c1ccc(O)c(O)c1 ; method: absorbance ; result: 2.8 µM
CCOC(=O)C(C(=O)OCC)c1cn(S(=O)(=O)c2ccc(C)cc2)c2ccc(NC(=O)c3cc(F)c(F)c(F)c3)cc12 ; method: strand transfer / fluorescence ; changes: G140S ; result: >25 µM
O=c1oc2c(O)c(O)cc3c(=O)oc4c(O)c(O)cc1c4c23 ; method: strand transfer / absorbance ; result: 90.23 µg/mL
CC1(C)OC(=O)/C(=C/C(=O)c2cn(Cc3cc(F)ccc3F)c3ccc(F)cc23)O1 ; method: strand transfer / fluorescence ; result: 9.6 µM
O=C1C=CC(=O)c2ccccc21 ; method: 3′ processing / substrate cleavage ; result: >100 µM

A second listing of 2 rows from above:

| compound | method | changes | result |
|---|---|---|---|
| CCN(CC)CCCC(C)Nc1ccnc2cc(Cl)ccc12 | 3′ processing / substrate cleavage |  | 13.1 µM |
| CCOC(=O)C(C(=O)OCC)c1cn(S(=O)(=O)c2ccc(C)cc2)c2ccc(NC(=O)c3cccc(C)c3O)cc12 | strand transfer / fluorescence | Y143R | 24.9 µM |